Reference: PubChem BioAssay AID624099 (ICCB-Longwood, 2012)

Aim: 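Human genes that papillomavirus E2 requires to repress the HPV18 LCR promoter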 (primary screen)
Cells: human C33A cervical carcinoma cells (HPV-negative) stably expressing BPV1 E2 and an HPV18 LCR luciferase reporter
Reagents: siRNA pool against human genes, 40 nM
Time to read-out: 72 h
Detection: 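Per-well luciferase luminescence, z-scored on each plate against the plate mean and SD with control wells left out, then averaged across three replicate plates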
Reading the numbers: mean z-score and z-score: higher = stronger reporter signal, weaker E2 silencing
Call rule: 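Mean z ≥ 2 together with z ≥ 2 in two or more of the three replicates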
The deposit covers about 21,000 reagents; below is a random part of them. 497 of them (2.4%) were called active. 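Higher z means weaker E2 silencing; only reporter increases were scored, and knock-downs that hurt cell survival may mask genuine repressor factors.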 Reagents against one gene are numbered here.

| gene knocked down | reagent no. | mean z-score | z-score, replicate A | z-score, replicate B | z-score, replicate C | call |
| --- | --- | --- | --- | --- | --- | --- |
| LRRC8A (GeneID 56262) | 1 | -0.84 | -1.08 | -0.5 | -0.94 | inactive |
| NAA40 (GeneID 79829) | 1 | -0.15 | -0.6 | 0.02 | 0.14 | inactive |
| TMPRSS11E (GeneID 28983) | 1 | 0.41 | 0.32 | 0.65 | 0.27 | inactive |
| IDE (GeneID 3416) | 1 | -0.27 | -0.33 | -0.05 | -0.42 | inactive |
| KASH5 (GeneID 147872) | 1 | 0.27 | 0.05 | 0.23 | 0.52 | inactive |
| OXNAD1 (GeneID 92106) | 1 | -0.57 | -0.43 | -0.7 | -0.58 | inactive |
| CCK (GeneID 885) | 1 | 0.51 | 0.24 | 0.82 | 0.47 | inactive |
| KRTAP4-12 (GeneID 83755) | 1 | -0.23 | -0.62 | 0.03 | -0.09 | inactive |
| PINX1 (GeneID 54984) | 1 | 0.52 | 0.99 | 0.45 | 0.11 | inactive |
| ZNF662 (GeneID 389114) | 1 | 0.86 | 0.82 | 1.03 | 0.73 | inactive |
| MRGPRD (GeneID 116512) | 1 | 2.17 | 1.94 | 2.4 | 2.17 | active |
| CDON (GeneID 50937) | 1 | -0.95 | -1.09 | -0.92 | -0.85 | inactive |
| GFOD1 (GeneID 54438) | 1 | -0.36 | -0.16 | -0.29 | -0.65 | inactive |
| GFOD1 (GeneID 54438) | 2 | 0.13 | -0.21 | 0.35 | 0.24 | inactive |
| TCF15 (GeneID 6939) | 1 | 0.43 | 0.37 | 0.41 | 0.52 | inactive |
| KCNJ9 (GeneID 3765) | 1 | 0.77 | 0.62 | 0.99 | 0.69 | inactive |
| CLSTN2 (GeneID 64084) | 1 | 0.01 | -0.8 | 0.51 | 0.32 | inactive |
| FAM177A1 (GeneID 283635) | 1 | -1.46 | -1.32 | -1.48 | -1.57 | inactive |
| LOC391352 (retired record) (GeneID 391352) | 1 | 0.52 | 1.34 | 0.49 | -0.25 | inactive |
| RPL27AP6 (GeneID 389435) | 1 | -4.29 | -4.18 | -4.14 | -4.56 | inactive |
| CCDC86 (GeneID 79080) | 1 | -1.28 | -0.98 | -1.37 | -1.49 | inactive |
| MTURN (GeneID 222166) | 1 | 1.12 | 1.21 | 1.25 | 0.9 | inactive |
| HOXA1 (GeneID 3198) | 1 | -0.14 | -0.42 | 0.07 | -0.09 | inactive |
| UEVLD (GeneID 55293) | 1 | 3.18 | 2.36 | 3.92 | 3.25 | active |
| FANCD2 (GeneID 2177) | 1 | -0.28 | -0.23 | -0.18 | -0.43 | inactive |
| TNFRSF14 (GeneID 8764) | 1 | -1.37 | -1.32 | -1.37 | -1.42 | inactive |
| CDC20 (GeneID 991) | 1 | 0.48 | 0.69 | 0.46 | 0.28 | inactive |
| KRTAP10-5 (GeneID 386680) | 1 | 0.34 | 0.33 | 0.11 | 0.58 | inactive |
| CT55 (GeneID 54967) | 1 | 0.3 | 0.54 | 0.34 | 0.02 | inactive |
| EFNB1 (GeneID 1947) | 1 | -1.62 | -1.62 | -1.67 | -1.56 | inactive |
| PGLYRP4 (GeneID 57115) | 1 | -0.67 | -0.96 | -0.51 | -0.56 | inactive |
| RNF2 (GeneID 6045) | 1 | 0.48 | 0.5 | 0.45 | 0.49 | inactive |
| IL36RN (GeneID 26525) | 1 | 0.59 | 0.73 | 0.5 | 0.54 | inactive |
| ANGPTL1 (GeneID 9068) | 1 | -0.26 | -0.25 | -0.18 | -0.36 | inactive |
| C19orf81 (GeneID 342918) | 1 | -1.03 | -1.13 | -0.79 | -1.17 | inactive |
| SNX5 (GeneID 27131) | 1 | -0.08 | 0 | -0.19 | -0.04 | inactive |
| TNFRSF1A (GeneID 7132) | 1 | -0.44 | -0.39 | -0.54 | -0.41 | inactive |
| TLR10 (GeneID 81793) | 1 | 0.21 | 0.21 | 0.3 | 0.13 | inactive |
| TRIM40 (GeneID 135644) | 1 | -1.77 | -1.56 | -1.9 | -1.85 | inactive |
| GPR149 (GeneID 344758) | 1 | -0.19 | 0.04 | -0.52 | -0.08 | inactive |
| FAM107A (GeneID 11170) | 1 | 0.56 | 0.47 | 0.5 | 0.72 | inactive |
| SPG11 (GeneID 80208) | 1 | 0.23 | -0.23 | 0.71 | 0.23 | inactive |
| ABHD15 (GeneID 116236) | 1 | -0.86 | -0.8 | -0.77 | -1 | inactive |
| MPHOSPH10 (GeneID 10199) | 1 | -0.98 | -0.81 | -1.09 | -1.05 | inactive |
| LY6G6C (GeneID 80740) | 1 | 0.11 | -0.08 | 0.11 | 0.31 | inactive |
| LARS1 (GeneID 51520) | 1 | -0.07 | 0.1 | -0.29 | -0.02 | inactive |
| NOL8 (GeneID 55035) | 1 | -0.9 | -0.34 | -0.6 | -1.78 | inactive |
| HSD17B6 (GeneID 8630) | 1 | -0.52 | -0.58 | -0.39 | -0.59 | inactive |
| HACD3 (GeneID 51495) | 1 | -0.6 | -0.25 | -0.98 | -0.56 | inactive |
| RASL12 (GeneID 51285) | 1 | -0.9 | -0.58 | -1.18 | -0.95 | inactive |
| MIR17HG (GeneID 407975) | 1 | -1.69 | -1.07 | -1.84 | -2.17 | inactive |
| TBC1D19 (GeneID 55296) | 1 | -0.09 | -0.24 | -0.45 | 0.42 | inactive |
| PPT1 (GeneID 5538) | 1 | 0.11 | 0.39 | -0.07 | 0 | inactive |
| LOC343153 (retired record) (GeneID 343153) | 1 | -2.07 | -2.25 | -2.19 | -1.77 | inactive |
| ALOX12 (GeneID 239) | 1 | 0.51 | 0.26 | 0.66 | 0.62 | inactive |
| CTNNBIP1 (GeneID 56998) | 1 | 0.53 | -0.08 | 0.82 | 0.87 | inactive |
| SERPINC1 (GeneID 462) | 1 | -0.45 | -0.03 | -0.47 | -0.85 | inactive |
| C17orf58 (GeneID 284018) | 1 | 0.48 | 1.57 | -0.06 | -0.07 | inactive |
| FAM91A1 (GeneID 157769) | 1 | -0.22 | -0.18 | 0.09 | -0.57 | inactive |
| OMD (GeneID 4958) | 1 | 0.79 | 1.06 | 0.65 | 0.66 | inactive |
| CDK15 (GeneID 65061) | 1 | 0.39 | 0.44 | 0.55 | 0.19 | inactive |
| LOC400669 (retired record) (GeneID 400669) | 1 | 0.27 | -0.1 | 0.52 | 0.39 | inactive |
| HSPA8 (GeneID 3312) | 1 | 0.51 | 0.75 | 0.13 | 0.64 | inactive |
| FOXK2 (GeneID 3607) | 1 | 1.09 | 1.24 | 1.14 | 0.89 | inactive |
| RPS3AP47 (GeneID 146053) | 1 | 0.69 | 1.07 | 0.58 | 0.42 | inactive |
| ACD (GeneID 65057) | 1 | 1.7 | 1.61 | 1.59 | 1.9 | inactive |
| LOC389803 (retired record) (GeneID 389803) | 1 | -0.33 | -0.38 | -0.64 | 0.04 | inactive |
| CSH1 (GeneID 1442) | 1 | -0.33 | -0.42 | -0.17 | -0.39 | inactive |
| MDP1 (GeneID 145553) | 1 | -0.63 | -0.98 | -0.07 | -0.82 | inactive |
| TMEM237 (GeneID 65062) | 1 | 1.57 | 1.36 | 1.58 | 1.78 | inactive |
| TKFC (GeneID 26007) | 1 | 0.67 | 1.02 | 0.08 | 0.91 | inactive |
| LOC389768 (GeneID 389768) | 1 | -0.54 | -0.04 | -0.87 | -0.72 | inactive |
| SLC36A1 (GeneID 206358) | 1 | 1.56 | 1.25 | 1.87 | 2.51 | inactive |
